The numbers were not newly measured in patent US9045248B2 (priority 2007, dated 2015), which cites them from elsewhere.

pIC50: −log10 of the molar value.

The target of this series is influenza virus RNP (Influenza A virus, UniProt P03428). Conditions: read-out: IC50 measured by inhibition of capped RNA cross-linking by cap analogues; cited from earlier work.

In the case of `C[n+]1cn([C@@H]2O[C@H](COP(=O)(O)OP(=O)([O-])OP(=O)(O)OC[C@H]3O[C@@H](n4cnc5c(=O)[nH]c(N)nc54)[C@H](O)[C@@H]3O)[C@@H](O)[C@H]2O)c2nc(N)[nH]c(=O)c21` [m^7GpppG, 7-methyl-guanosine linked via a 5′ to 5′ triphosphate bridge to guanosine], the pIC50 is 3.90.
